Measurements as given in PubChem BioAssay AID504690 (Sanford-Burnham Center for Chemical Genomics, 2011).
The list shows a part of the results, in another mix than the full data. Calls of active or inactive are those of the source.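 The calls were made as follows: active = inhibition reaching at least a set limit at 20 µM in the primary screen (cut at about 59% in these data); inactive = the rest.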

These compounds were tested on glucose-6-phosphate dehydrogenase-6-phosphogluconolactonase (Plasmodium falciparum 3D7) (assay: PfG6PD enzyme inhibitors, primary screen, biochemical, fluorescence intensity, uHTS (AID 504690;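 also: 0% = DMSO wells with substrate and 100% = DMSO wells lacking glucose-6-phosphate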)). Details: PfGluPho enzyme, NADPH resazurin-diaphorase fluorescence; at 20 µM; stronger effect = higher value.
With CCN1CCC(Nc2cccc(F)c2)CC1 the inhibition was inactive: -16.1%.
For Cc1ccccc1NC1(C#N)CCN(Cc2ccccc2)CC1, the inhibition was inactive: 8.29%.
In the case of Cn1c(=O)[nH]cc(N(CCCl)CCCl)c1=O, the inhibition is reported as inactive: 12.7%.
For CN(C)c1ccc(C(=O)NCC2(N3CCCCC3)CCCCC2)cc1, the inhibition was inactive: -16.6%.
For O=C(NCC1(N2CCCCC2)CCCCC1)c1ccco1, the inhibition was inactive: 6.26%.
For CC(=O)N(c1ccccc1)C1CCNCC1, the inhibition was inactive: -0.57%.
COc1cc(OC)cc(C(=O)NCC2(N3CCCCC3)CCCCC2)c1 was tested, and the inhibition was inactive: -4.09%.
With Fc1ccccc1NC1CCN(Cc2ccccc2)CC1 the inhibition was inactive: -3.71%.
With Cc1ccc(C(=O)NCC2(N3CCCCC3)CCCCC2)o1 the inhibition was inactive: -5.08%.
Cc1ccc(NC2(C#N)CCN(Cc3ccccc3)CC2)cc1 was tested, and the inhibition was inactive: 11.2%.
COc1cccc(C(=O)N(c2cc(C)cc(C)c2)C2CCN(C(=O)OC(C)(C)C)CC2)c1 was tested, and the inhibition was inactive: 19.9%.
For COc1cc(OC)cc(C(=O)NCC2(N3CCOCC3)CCCCC2)c1, the inhibition was inactive: 0.07%.
CCC(CO)(C(=O)OC1CN2CCC1CC2)c1ccccc1 (stereo unspecified) was tested, and the inhibition was inactive: -13.6%.
For CN1CCC(Nc2ccc(Cl)cc2)CC1, the inhibition was inactive: 2.29%.
For CN1CCC(Nc2ccc(F)c(Cl)c2)CC1, the inhibition was inactive: -17.9%.
CCOc1ncccc1C(=O)NCC1(N2CCOCC2)CCCCC1 was tested, and the inhibition was inactive: -8.7%.
For O=C(O)C1(Nc2ccccc2)CCN(Cc2ccccc2)CC1, the inhibition was inactive: 0.66%.
For CC(C)(C)OC(=O)N1CCC(Nc2ccccc2)CC1, the inhibition was inactive: -5.69%.
In the case of CCCOc1ccc(C(=O)NCC2(N(C)C)CCCCC2)cc1, the inhibition is reported as inactive: -3.04%.
For CCOC(=O)N1CCC(Nc2ccc(C)cc2)CC1, the inhibition was inactive: 0.87%.
In the case of N/C(=N\O)c1c(N)no[n+]1[O-], the inhibition is reported as inactive: -5.13%.
In the case of O=C(OC1CN2CCC1CC2)C1c2ccccc2C=Cc2ccccc21 (stereo unspecified), the inhibition is reported as inactive: -10.9%.
With CCc1cc(C(=O)NCC2(N3CCCCC3)CCCCC2)sc1C the inhibition was inactive: 7.45%.
In the case of COc1cc(C(=O)NCC2(N3CCOCC3)CCCCC2)cc(OC)c1C, the inhibition is reported as inactive: 12.8%.
With O=C(NCC1(N2CCOCC2)CCCCC1)c1cc(Br)ccc1Cl the inhibition was inactive: -4.81%.
For COc1ccc(C(=O)NCC2(N3CCOCC3)CCCCC2)cc1OC, the inhibition was inactive: -6.4%.
With CN(C)C1(CNC(=O)c2cccc(C#N)c2)CCCCC1 the inhibition was inactive: 8.38%.
With Cc1cc(N(CCCl)CCCl)ccc1C=O the inhibition was inactive: 6.24%.
In the case of CCCN1CCC(Nc2cc(OC)cc(OC)c2)CC1, the inhibition is reported as inactive: 12.7%.
For c1ccc(CN2CCC(Nc3ccccc3)CC2)cc1, the inhibition was inactive: 9.6%.
N#Cc1ccc(C(=O)NCC2(N3CCCCC3)CCCCC2)cc1 was tested, and the inhibition was inactive: -17.4%.
In the case of CC(C)(C)OC(=O)N1CCC(N(C(=O)c2ccccc2)c2ccc(Cl)cc2)CC1, the inhibition is reported as inactive: -8.46%.
O=C(NCC1(N2CCCCC2)CCCCC1)c1cccc(C(F)(F)F)c1 was tested, and the inhibition was inactive: 0.24%.
For O=C(NCC1(N2CCOCC2)CCCCC1)c1cc(=O)[nH]c2ccccc12, the inhibition was inactive: -3.52%.
COc1cc(C(=O)NCC2(N3CCCCC3)CCCCC2)ccc1OC(F)F was tested, and the inhibition was inactive: 6.73%.
For CC(C)c1ccc(C(=O)NCC2(N3CCOCC3)CCCCC2)cc1, the inhibition was inactive: 27.9%.
COc1ccc(NC2CCN(C(=O)OC(C)(C)C)CC2)cc1 was tested, and the inhibition was inactive: 19.1%.
CN1CCN(CCOC(=O)C(O)(c2ccccc2)c2ccccc2)CC1 was tested, and the inhibition was inactive: -6.26%.
With O=C(NCC1(N2CCCCC2)CCCCC1)c1ccc(OC(F)F)cc1 the inhibition was inactive: -15.1%.
In the case of N#CC1(Nc2ccccc2)CCN(CCc2ccccc2)CC1, the inhibition is reported as inactive: -4.37%.
With CCN1CCC(Nc2ccc(Cl)cc2)CC1 the inhibition was inactive: 5.92%.
In the case of O=C(NCC1(N2CCCCC2)CCCCC1)c1cccc([N+](=O)[O-])c1, the inhibition is reported as inactive: 6.83%.
In the case of CSc1ccc(C(=O)NCC2(N3CCOCC3)CCCCC2)cc1, the inhibition is reported as inactive: 26.7%.
For O=C(NCC1(N2CCCCC2)CCCCC1)c1cncc(Br)c1, the inhibition was inactive: 7.88%.
CN1CCC(Nc2cccc(F)c2)CC1 was tested, and the inhibition was inactive: -1.28%.
With CCCOc1ccc(C(=O)NCC2(N(C)C)CCCCC2)cc1OC the inhibition was inactive: -5.02%.
In the case of Cc1ccc(C(=O)NCC2(N(C)C)CCCCC2)o1, the inhibition is reported as inactive: -16.1%.
In the case of CC(C)c1ccc(NC2CCN(C(=O)OC(C)(C)C)CC2)cc1, the inhibition is reported as inactive: 2.12%.
In the case of CN(C)c1cccc(C(=O)NCC2(N3CCCCC3)CCCCC2)c1, the inhibition is reported as inactive: -13.8%.
With COc1ccc(CN(CCCl)CCCl)cc1Cl the inhibition was inactive: 8.97%.
For O=C(NCC1(N2CCOCC2)CCCCC1)c1cc(F)c(F)cc1Cl, the inhibition was inactive: 4.83%.
In the case of COc1cc(OC)c(C(=O)NCC2(N(C)C)CCCCC2)cc1OC, the inhibition is reported as inactive: -7.81%.
In the case of Cc1cc(C)cc(N(C(=O)c2ccccc2)C2CCN(C(=O)OC(C)(C)C)CC2)c1, the inhibition is reported as inactive: 16.8%.
O=C(NCC1(N2CCCCC2)CCCCC1)c1ccc(Cl)nc1 was tested, and the inhibition was inactive: 5.31%.
O=C(NCC1(N2CCOCC2)CCCCC1)c1cc2ccccc2o1 was tested, and the inhibition was inactive: 22.7%.
In the case of COc1ccc(Cl)cc1C(=O)NCC1(N2CCOCC2)CCCCC1, the inhibition is reported as inactive: 25.2%.
O=C(OC1CN2CCC1CC2)C1c2ccccc2Oc2ccccc21 (stereo unspecified) was tested, and the inhibition was inactive: 22.2%.
In the case of O=C(NCC1(N2CCCCC2)CCCCC1)c1ccc(Cl)s1, the inhibition is reported as inactive: -7.1%.
N#CC1(Nc2ccccc2)CCN(Cc2ccccc2)CC1 was tested, and the inhibition was inactive: -7.31%.
For CCOC(=O)N1CCC(Nc2ccc(OC)cc2)CC1, the inhibition was inactive: -1.12%.
With CC(C)(C)OC(=O)N1CCC(N(C(=O)c2ccccc2)c2ccc(F)cc2)CC1 the inhibition was inactive: -5.58%.
For COc1ccc(C(=O)NCC2(N3CCCCC3)CCCCC2)c(OC)c1OC, the inhibition was inactive: -17%.
COc1ccc(C(=O)NCC2(N3CCCCC3)CCCCC2)cc1 was tested, and the inhibition was inactive: 10.6%.
For O=C(NCC1(N2CCCCC2)CCCCC1)c1cccs1, the inhibition was inactive: -21.9%.
With O=C(NCC1(N2CCCCC2)CCCCC1)c1ccc(=O)[nH]c1 the inhibition was inactive: -11.7%.
For Cc1cccc(NC2(C#N)CCN(Cc3ccccc3)CC2)c1, the inhibition was inactive: 4.46%.
With CSc1ccccc1C(=O)NCC1(N2CCCCC2)CCCCC1 the inhibition was inactive: -0.28%.
In the case of COc1cc(C(=O)NCC2(N(C)C)CCCCC2)ccc1OC(F)F, the inhibition is reported as inactive: -3.84%.
With CCOC(=O)N1CCC(Nc2cccc(C)c2)CC1 the inhibition was inactive: 19.1%.
O=C1CCN(Cc2ccccc2)CC1 was tested, and the inhibition was inactive: 18.4%.
CCOc1ccc(C)cc1CN(CCCl)CCCl was tested, and the inhibition was inactive: 17.9%.
CCOC(=O)N1CCC(Nc2ccc(F)cc2)CC1 was tested, and the inhibition was inactive: 3.85%.
In the case of COc1ccc(NC2CCN(CCc3ccccc3)CC2)c(OC)c1, the inhibition is reported as inactive: 15.2%.
O=C(NCC1(N2CCCCC2)CCCCC1)c1ccc(F)cc1 was tested, and the inhibition was inactive: 2.36%.
In the case of CCCCOc1ccc(C(=O)NCC2(N3CCOCC3)CCCCC2)cc1, the inhibition is reported as inactive: 12.2%.
For O=P1(N(CCCl)CCCl)SCCCS1, the inhibition was inactive: -1.68%.
